Where a name gives a salt, the structure may show the parent alone.
Test system: Cryptosporidium parvum
Test: Anti-cryptosporidial efficacy assay (44-h infection/qRT-PCR)
Conditions: for Pct change of EC50 (vs NC): MDR1(PTX) vs NC host cells; for Hill slope (h): efficacy curve; for Hill slope (h), mean values: mean of h of efficacy and cytotoxicity assays (S6 Table), h used in Fig 11B

Row | Structure (SMILES) | Pct change of EC50 (vs NC) | Hill slope (h) (MDR1(PTX) host cells) | Hill slope (h) (NC host cells) | Hill slope (h) (WT host cells) | Hill slope (h), mean values
1 | COc1cccc2c1C(=O)c1c(O)c3c(c(O)c1C2=O)C[C@@](O)(C(=O)CO)C[C@@H]3O[C@H]1C[C@H](N)[C@H](O)[C@H](C)O1 [Doxorubicin, Doxorubicin HCl] | 63.9% | 1.07 | 1.14 | 1.05 | 1.099
2 | O=C1c2c(O)ccc(O)c2C(=O)c2c(NCCNCCO)ccc(NCCNCCO)c21 [Mitoxantrone, Mitoxantrone 2HCl] | 103.9% |  | 1.16 | 1.12 | 1.092
3 | CC(=O)Oc1ccccc1C(=O)Nc1ncc([N+](=O)[O-])s1 [Nitazoxanide] |  |  | 1.14 | 1.14 | 1.116
4 | CC(=O)O[C@H]1C(=O)[C@@]2(C)[C@H]([C@H](OC(=O)c3ccccc3)[C@]3(O)C[C@H](OC(=O)[C@H](O)[C@@H](NC(=O)c4ccccc4)c4ccccc4)C(C)=C1C3(C)C)[C@]1(OC(C)=O)CO[C@@H]1C[C@@H]2O [Paclitaxel] | -3.3% | 1.04 | 1.09 | 1.07 | 1.059
5 | CC[C@]1(O)C[C@H]2CN(CCc3c([nH]c4ccccc34)[C@@](C(=O)OC)(c3cc4c(cc3OC)N(C=O)[C@H]3[C@@](O)(C(=O)OC)[C@H](OC(C)=O)[C@]5(CC)C=CCN6CC[C@]43[C@@H]65)C2)C1 [Vincristine, Vincristine sulphate] | 75.3% | 1.02 | 1.01 | 1.00 | 1.030

— article PMC10079235 (PLOS Neglected Tropical Diseases, 2023)
